Tests used:
NM14 (influenza A virus) = assay: ELISA, peptide coated, antibody 10 µg/ml
CM16 (influenza A virus) = assay: ELISA, peptide coated, antibody 10 µg/ml
CM14 (influenza A virus) = assay: ELISA, peptide coated, antibody 10 µg/ml
CM12 (influenza A virus) = assay: ELISA, peptide coated, antibody 10 µg/ml
CM13 (influenza A virus) = assay: ELISA, peptide coated, antibody 10 µg/ml
NM13 (influenza A virus) = assay: ELISA, peptide coated, antibody 10 µg/ml
CM17 (influenza A virus) = assay: ELISA, peptide coated, antibody 10 µg/ml
CM15 (influenza A virus) = assay: ELISA, peptide coated, antibody 10 µg/ml
NM12 (influenza A virus) = assay: ELISA, peptide coated, antibody 10 µg/ml
NM11 (influenza A virus) = assay: ELISA, peptide coated, antibody 10 µg/ml
M12 (influenza A virus) = assay: ELISA, peptide coated, antibody 10 µg/ml
[1] = biological target: M2 expressed on A/HK/8/68 infected MDCK cells (influenza A virus A/HK/8/68); assay: cell-based ELISA, infected MDCK cells

B1: N547 (antibody, V domains shown)
VH: EVQLVESGGGLVKPGGSLRLSCAASGFTFSNALMSWVRQAPGKGLEWVGRIKSKTNGGTTDYAAPVKGRFTISRDDSKNTLYLQMNSLKTEDTAVYYCTTHLRYFDWLSDYWGQGTLVTVSS
VL: QSVLTQPPSMSAAPGQKVTISCSGSSSNIGNNYISWYQQLPGTAPKVLIYDNNKRPSGIPDRFSGSKSGTSATLGITGLQTGDEADYYCGSWDSSLSAGVFGTGTKVTVLG
With B1 the ELISA (OD450) (NM14 (influenza A virus)) was 0.16 OD450, the ELISA (OD450) (CM16 (influenza A virus)) was 0.08 OD450 and the ELISA (OD450) (CM14 (influenza A virus)) was 0.08 OD450. For the same binder, the ELISA (OD450) (CM12 (influenza A virus)) was 0.07 OD450, the ELISA (OD450) (CM13 (influenza A virus)) was 0.08 OD450 and the ELISA (OD450) (NM13 (influenza A virus)) was 0.06 OD450. It also gave an ELISA (OD450) (CM17 (influenza A virus)) of 0.08 OD450, an ELISA (OD450) (CM15 (influenza A virus)) of 0.08 OD450 and an ELISA (OD450) (NM12 (influenza A virus)) of 0.16 OD450. It also gave an ELISA (OD450) (NM11 (influenza A virus)) of 0.07 OD450, an ELISA (OD450) (M12 (influenza A virus)) of 0.07 OD450 and an EC50 [1] of 0.466 µg/mL.

Reference: patent US20050170334A1
